In patent US8143421B2, “Broadspectrum substituted benzimidazole sulfonamide HIV protease inhibitors” (priority 2002, dated 2012):

Tested on: mock-infected MT4 cells
Experiment: Toxicity on mock-infected MT4 cells (CC50)
Conditions: pCC50 value as determined with mock transfected cells
Procedure: HIV- or mock-infected MT4 cells were incubated for five days in the presence of various concentrations of the inhibitor. […] Cell viability is measured by measuring the concentration of MTT, a yellow, water soluble tetrazolium dye that is converted to a purple, water insoluble formazan in the mitochondria of living cells only. Upon solubilization of the resulting formazan crystals with isopropanol, the absorbance of the solution is monitored at 540 nm. The values correlate directly to the number of living cells remaining in the culture at the completion of the five day incubation. The inhibitory activity of the compound was monitored on the virus-infected cells and was expressed as IC50 and IC90. These values represent the amount of the compound required to protect 50% and 90%, respectively, of the cells from the cytopathogenic effect of the virus. The toxicity of the compound was measured on the mock-infected cells and was expressed as CC50, which represents the concentration of compound required to inhibit the growth of the cells by 50%. […] Wherever results are reported as e.g. pIC50 or pCC50 values, the result is expressed as the negative logarithm of the result expressed as IC50 or CC50 respectively.
As a measure of the broad spectrum activity of the present compounds, the fold resistance (FR), defined as FR=IC50(mutant strain)/IC50(HIV-1 strain LAI), was determined.

SMILES: CC(C)CN(C[C@@H](O)[C@H](Cc1ccccc1)NC(=O)OCc1cncs1)S(=O)(=O)c1ccc2ncn(Cc3ccccc3)c2c1 [Compound 30]
- Tox (pCC50): <4

SMILES: CC(C)CN(C[C@@H](O)[C@H](Cc1ccccc1)NC(=O)OC(C)(C)C)S(=O)(=O)c1ccc2nc(N)n(Cc3ccccc3)c2c1 [Compound 39]
- Tox (pCC50): 4.3
